Our source for the Corrosion rate values is US11624022B2, “Preparation method for the plant-based nano corrosion inhibition bactericide for oilfield and application thereof” (Southwest Petroleum University, priority 2021, dated 2023).

The nature of the data set: Corrosion inhibition performance test (static uniform corrosion, SY/T 5273-2014). The following applies: 60 mg/L; N80 steel, corrosive solution pH 6.5, 37° C., 14 days; blank 0.3254. As to the method:
The corrosive solution of 1 L was prepared, the pH was adjusted to 6.5, and the temperature was 37° C. at a normal pressure. The N80 steel specimens were processed with specifications of 30*15*3 and placed in corrosive solution. Three specimens were placed in each vial and different corrosion inhibitors were added respectively. The experiment lasted for 14 days.
After the test, the specimens were cleaned with stripping solution (100 ml hydrochloric acid+10 g hexamethylenetetramine+900 mL deionized water), then dehydrated by ethanol and blow-dried with N2. The determination method for static uniform corrosion inhibition rate was evaluated with referring to the Performance Index and Evaluation Method of Corrosion Inhibitor for Oilfield Produced Water Treatment (SY/T 5273-2014), the oil and gas industry standard of the People's Republic of China. The formulas of uniform corrosion rate and corrosion inhibition efficiency are as follows:
The corrosion inhibition test results are shown in Table 3, in which the corrosion inhibitors 1, 2 and 3 commonly used in oilfields are respectively the lauric acid imidazoline, abietic acid imidazoline and tetradecyl trimethyl ammonium bromide.

`CCCCCCCCCCCCCC[N+](C)(C)C.[Br-]` [Tetradecyl trimethyl ammonium bromide, tetradecyl trimethyl ammonium bromide] displayed a Corrosion rate of 0.0295 mm/a.
Then abietic acid imidazoline, with 0.0198 mm/a; and lauric acid imidazoline, with 0.0218 mm/a.
